{"sequences": {"note": "Sequences of proteins named here, by UniProt entry; tags and fusion partners are left off. Residues count along the entry.", "UniProt P22303, 32-614": "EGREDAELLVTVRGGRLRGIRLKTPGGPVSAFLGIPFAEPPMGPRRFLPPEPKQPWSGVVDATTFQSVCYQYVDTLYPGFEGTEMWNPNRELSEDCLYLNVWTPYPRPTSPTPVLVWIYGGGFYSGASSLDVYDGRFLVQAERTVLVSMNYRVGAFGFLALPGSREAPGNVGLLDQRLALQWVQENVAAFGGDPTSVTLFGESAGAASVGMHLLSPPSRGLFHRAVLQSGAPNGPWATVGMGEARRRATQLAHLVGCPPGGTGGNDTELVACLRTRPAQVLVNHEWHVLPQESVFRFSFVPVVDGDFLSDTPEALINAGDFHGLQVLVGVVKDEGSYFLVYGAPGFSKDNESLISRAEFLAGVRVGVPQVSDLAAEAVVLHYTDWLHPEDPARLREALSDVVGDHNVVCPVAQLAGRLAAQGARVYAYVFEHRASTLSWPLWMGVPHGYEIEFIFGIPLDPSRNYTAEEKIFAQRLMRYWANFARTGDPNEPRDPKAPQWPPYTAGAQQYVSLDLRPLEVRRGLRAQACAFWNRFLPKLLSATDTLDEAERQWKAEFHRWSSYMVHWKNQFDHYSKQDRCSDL"}, "source": "patent US6987211B1", "about": "“Transgenic non-human mammals producing a cholinesterase in their milk” (dated 2006)", "key": {"human recombinant AChE": {"biological_target": "human recombinant AChE (Homo sapiens, UniProt P22303)", "test": "In vivo inhibition of AChE by Paraoxon in CMVAChE-injected Xenopus embryos"}, "embryonic Xenopus AChE": {"tested_on": "embryonic Xenopus AChE", "test": "In vivo inhibition of AChE by Paraoxon in uninjected Xenopus embryos", "conditions": "in vivo (embryos, 30 minutes) versus in vitro (homogenates)"}}}
{"smiles": "CCOP(=O)(OCC)Oc1ccc([N+](=O)[O-])cc1", "values": [{"measurement": "higher sensitivity of human AChE than embryonic Xenopus AChE", "setting": "human recombinant AChE; human versus Xenopus enzyme", "result": 100, "unit": "fold"}, {"measurement": "decrease in sensitivity under in vivo conditions", "setting": "human recombinant AChE; in vivo (embryos, 30 minutes) versus in vitro (homogenates)", "result": "5-10 fold"}, {"measurement": "decrease in sensitivity under in vivo conditions", "setting": "embryonic Xenopus AChE", "result": "5-10 fold"}]}
